Anti-infective test results gathered from many reports (values: NIAID ChemDB through PubChem).

All rows: tests on isolated targets; target: CCR5

Percent inhibition refers to the dose given; in toxicity tests it is the harm to the cells.

{"SMILES": "C=CCOC(=O)N[C@@H](CCN1CCC(N(CC)C(=O)Cc2ccc(S(C)(=O)=O)cc2)CC1)c1ccccc1", "read by": "fluorescence", "read-out": "IC50", "value": "<50 µM"}
{"SMILES": "O=C1CC(C(=O)N(CCCN2CCC(Cc3ccccc3)CC2)c2ccccc2)CN1CC(F)(F)F", "read by": "radiometric", "read-out": "inhibition", "tested at": "1 µM", "value": "90%"}
{"SMILES": "c1ccc(-c2cccc(NCc3ccc(CN4CCCNCCNCCCNCC4)cc3)c2)cc1", "read by": "fluorescence", "read-out": "inhibition", "tested at": "10 µM", "value": "61%"}
{"SMILES": "CCN(C[C@@H](CCN1CCC2(CC1)CSc1ccccc12)c1ccc(Cl)c(Cl)c1)C(=O)c1ccccc1", "read by": "radioligand binding / binding", "read-out": "IC50", "value": "10 µM"}
{"SMILES": "O=C1CC(C(=O)N(CCCN2CCC(Cc3ccccc3)CC2)c2ccccc2)CN1Cc1ccccc1", "read by": "radiometric", "read-out": "inhibition", "tested at": "1 µM", "value": "92%"}
{"SMILES": "CCO/N=C(\\c1ccc(Br)cc1)C1CCN(C2(C)CCN(C(=O)c3c(C)cc[n+]([O-])c3C)CC2)CC1", "read by": "fluorescence", "read-out": "IC50", "value": ">1 µM"}
{"SMILES": "CCN(C(=O)Cc1ccc(S(C)(=O)=O)cc1)C1CCN(CC[C@H](NC(=O)OCC(Cl)(Cl)Cl)c2ccccc2)CC1", "read by": "fluorescence", "read-out": "IC50", "value": "<50 µM"}
{"SMILES": "O=S1CC2(CCN(CC[C@H](COCc3ccccc3)c3ccc(Cl)c(Cl)c3)CC2)c2ccccc21", "read by": "radioligand binding / binding", "read-out": "IC50", "value": ">1 µM"}
{"SMILES": "CCN(C(=O)Cc1ccc(S(C)(=O)=O)cc1)C1CCN(CC[C@H](NC(=O)C2CCN(S(=O)(=O)c3ccccc3)CC2)c2ccccc2)CC1", "read by": "fluorescence", "read-out": "IC50", "value": "<50 µM"}
{"SMILES": "CN1CC(C(=O)N(CCCN2CCC(Cc3ccccc3)CC2)c2ccc(Cl)c(Cl)c2)CC1=O", "read by": "radiometric", "read-out": "inhibition", "tested at": "1 µM", "value": "95%"}
{"SMILES": "CN1CC(C(=O)N(CCCN2CCCCC2)c2ccccc2)CC1=O", "read by": "radiometric", "read-out": "inhibition", "tested at": "10 µM", "value": "16%"}
{"SMILES": "CN(C[C@@H](CCN1CCC2(CC1)CS(=O)c1ccccc12)c1ccc(Cl)c(Cl)c1)S(=O)(=O)c1ccc(-c2ccccn2)s1", "read by": "radioligand binding / binding", "read-out": "IC50", "value": "0.02 µM"}
{"SMILES": "CCN(C(=O)Cc1ccc(S(C)(=O)=O)cc1)C1CCN(CC[C@H](NC(=O)Oc2ccc(Cl)cc2)c2ccccc2)CC1", "read by": "fluorescence", "read-out": "IC50", "value": "<50 µM"}
{"SMILES": "CN1CC(C(=O)N(CCCN2CCC(Cc3ccccc3)CC2)Cc2ccccc2)CC1=O", "read by": "radiometric", "read-out": "inhibition", "tested at": "1 µM", "value": "67%"}
{"SMILES": "c1cc2c(c(NCc3ccc(CN4CCCNCCNCCCNCC4)cc3)c1)CCCC2", "read by": "fluorescence", "read-out": "inhibition", "tested at": "10 µM", "value": "56%"}
{"SMILES": "CN1CC(C(=O)N(CCN2CCC(C(=O)c3ccc(F)cc3)CC2)c2ccccc2)CC1=O", "read by": "radiometric", "read-out": "inhibition", "tested at": "10 µM", "value": "27%"}
{"SMILES": "CCN(C(=O)Cc1ccc(S(C)(=O)=O)cc1)C1CCN(CC[C@H](NC(=O)OC(C)(C)C)c2ccccc2)CC1", "read by": "fluorescence", "read-out": "IC50", "value": "<50 µM"}
{"SMILES": "CN1CC(C(=O)N(CCCN2CCC(Cc3ccccc3)CC2)c2cccc(Cl)c2)CC1=O", "read by": "radiometric", "read-out": "inhibition", "tested at": "1 µM", "value": "82%"}
{"SMILES": "CCN(C(=O)Cc1ccc(S(C)(=O)=O)cc1)C1CCN(CC[C@H](NC(=O)C2CCN(C(=O)COCCOC)CC2)c2ccccc2)CC1", "read by": "fluorescence", "read-out": "IC50", "value": "<50 µM"}
{"SMILES": "CN1CC(C(=O)N(CCCCN2CCC(C(=O)c3ccc(F)cc3)CC2)c2ccccc2)CC1=O", "read by": "radiometric", "read-out": "inhibition", "tested at": "1 µM", "value": "22%"}

Repeating the first 2 entries:

SMILES	read by	read-out	tested at	value
C=CCOC(=O)N[C@@H](CCN1CCC(N(CC)C(=O)Cc2ccc(S(C)(=O)=O)cc2)CC1)c1ccccc1	fluorescence	IC50		<50 µM
O=C1CC(C(=O)N(CCCN2CCC(Cc3ccccc3)CC2)c2ccccc2)CN1CC(F)(F)F	radiometric	inhibition	1 µM	90%

Rows are shuffled and stem from different studies. ICn: concentration for n% inhibition. Blank or dashed fields: not listed here.